From paper PMC8184944, “Crystal structures of aconitase X enzymes from bacteria and archaea provide insights into the molecular evolution of the aconitase superfamily” (Communications Biology, 2021)

The substances below were run on O=C(O)[C@H]1NCC[C@H]1O (assay: purified protein). Conditions: free enzyme; coupling with NADH.

| Substance | Km [µM] | kcat [s⁻¹] |
| --- | --- | --- |
| AtAcnX (Agrobacterium fabrum str. C58; I206A) | 2370 ± 350 | 2.23 ± 0.267 |
| AtAcnX (Agrobacterium fabrum str. C58; S293A) | 1270 ± 30 | 1.43 ± 0.025 |
| AtAcnX (Agrobacterium fabrum str. C58; T72A) | 1840 ± 60 | 6.9 ± 0.217 |
| AtAcnX (Agrobacterium fabrum str. C58; W35A) | 4000 ± 950 | 0.0365 ± 0.001 |
